Anti-infective test results gathered from many reports (values: NIAID ChemDB through PubChem).

All rows: whole-cell or culture tests

Percent inhibition refers to the dose given; in toxicity tests it is the harm to the cells. An empty or dashed field is not shown. Rows are shuffled and stem from different studies. ECn: concentration that inhibits the pathogen or its effect by n%.

CCC(=O)O[C@@H]1CC(=O)O[C@H](C)C/C=C/C=C/[C@H](O[C@H]2CC[C@H](N(C)C)[C@H](C)O2)[C@H](C)C[C@H](CC=O)[C@H](O[C@@H]2O[C@H](C)[C@@H](O[C@H]3C[C@@](C)(O)[C@@H](O)[C@H](C)O3)[C@H](N(C)C)[C@H]2O)[C@H]1OC ; species: Herpes simplex virus 1 ; measure: EC50 ; strain or isolate: KOS ; method: cytopathic effect ; cell line: HeLa ; value: >100 µg/mL
CCC#Cc1ccc2c(c1)c(=O)c(C(=O)NCc1ccc(Cl)cc1)nn2C ; species: Herpes simplex virus ; measure: EC50 ; value: <20 µM
C[C@@H]1O[C@@H]1P(=O)(O)O ; species: Herpes simplex virus 1 ; measure: EC50 ; strain or isolate: KOS ; method: cytopathic effect ; cell line: HeLa ; value: >200 µg/mL
Nc1ncnc2c1ncn2CCOCP(=O)(O)O ; species: Herpes simplex virus 1 ; measure: EC50 ; strain or isolate: KOS GCV-resistant ; method: cytopathic effect ; cell line: HEL ; value: 22.4 µg/mL
O=C(O)P(=O)(O)O ; dose: 238 µM ; species: Herpes simplex virus 2 ; measure: inhibition ; strain or isolate: K979 ; method: cytopathic effect ; cell line: VERO ; value: >25%
O=C(O)P(=O)(O)O ; dose: 500 µM ; species: Herpes simplex virus 2 ; measure: inhibition ; strain or isolate: V12500 ; method: plaque count ; cell line: SIRC ; value: >99.9%
CCc1cn([C@H]2C[C@H](O)[C@@H](CO)O2)c(=O)[nH]c1=O ; species: Herpes simplex virus ; measure: EC50 ; method: cytopathic effect ; value: 2 µg/mL
O=C(O)CP(=O)(O)O ; species: Herpes simplex virus 1 ; measure: EC50 ; strain or isolate: KOS HPMPA-resistant ; method: cytopathic effect ; cell line: HEL ; value: 11.9 µg/mL
COC(=O)P(=O)(O)OC[C@H]1O[C@@H](n2cc(CCCl)c(=O)[nH]c2=O)C[C@@H]1O ; dose: 242 µM ; species: Herpes simplex virus 1 ; measure: inhibition ; strain or isolate: TK- ; method: cytopathic effect ; cell line: VERO ; value: >25%
CN[C@@H]1[C@@H](O)[C@@H](O[C@@H]2[C@@H](O)[C@H](O[C@H]3OC([C@H](C)N)=CC[C@H]3N)[C@@H](N)C[C@H]2N)OC[C@]1(C)O ; species: Herpes simplex virus 1 ; measure: EC50 ; strain or isolate: KOS ; method: cytopathic effect ; cell line: HeLa ; value: >200 µg/mL
Nc1ncnc2c1ncn2[C@@H]1O[C@H](CO)[C@@H](O)[C@@H]1O ; species: Herpes simplex virus 1 ; measure: EC50 ; strain or isolate: KOS S2242-resistant ; method: cytopathic effect ; cell line: HEL ; value: 17.3 µg/mL
CCOC(=O)P(=O)(OC)OC[C@H]1O[C@@H](n2cc(I)c(=O)[nH]c2=O)C[C@@H]1O ; dose: 5.9 µM ; species: Herpes simplex virus 2 ; measure: inhibition ; strain or isolate: TK- ; method: cytopathic effect ; cell line: VERO ; value: >25%
Nc1nc(N)c2ncn(CCOCP(=O)(O)O)c2n1 ; species: Herpes simplex virus 1 ; measure: EC50 ; strain or isolate: KOS HPMPC-resistant ; method: cytopathic effect ; cell line: HEL ; value: 2.1 µg/mL
Nc1ncnc2c1ncn2[C@@H]1O[C@H](CO[C@H]2[C@H](O)[C@H](O[C@H]3O[C@@H](CO)[C@@H](O)[C@H](O)[C@@H]3N)[C@@H](O)[C@@H](OS(=O)(=O)O)[C@@H]2OC(=O)[C@@H](N)CO)[C@@H](O)[C@H]1O ; species: Herpes simplex virus 1 ; measure: EC50 ; strain or isolate: KOS ; method: cytopathic effect ; cell line: HeLa ; value: >200 µg/mL
Nc1nc2c(ncn2CCC(CO)CO)c(=O)[nH]1 ; species: Herpes simplex virus 1 ; measure: EC50 ; strain or isolate: KOS ACV-resistant ; method: cytopathic effect ; cell line: HEL ; value: >20 µg/mL
O=C(NCc1ccc(Cl)cc1)c1cn2c(CO)cc3cc(CN4CCOCC4)cc(c1=O)c32 ; species: Herpes simplex virus ; measure: EC50 ; value: <0.02 µM
Nc1ncnc2c1ncn2[C@@H]1O[C@H](COP(=O)(O)OS(=O)(=O)O)[C@@H](O)[C@H]1O ; species: Herpes simplex virus 1 ; measure: EC50 ; strain or isolate: KOS ; method: cytopathic effect ; cell line: HeLa ; value: >1000 µM
O=c1[nH]c(=O)n([C@H]2C[C@H](O)[C@@H](CO)O2)cc1CCCl ; dose: 34.2 µM ; species: Herpes simplex virus 1 ; measure: inhibition ; strain or isolate: TK- ; method: cytopathic effect ; cell line: VERO ; value: >25%
O=C1C=C([C@@H]2O[C@H](CO)[C@@H](O)[C@H]2O)C(=O)N1 ; species: Herpes simplex virus 1 ; measure: EC50 ; strain or isolate: KOS ; method: cytopathic effect ; cell line: HeLa ; value: >200 µg/mL
O=C(O)CP(=O)(O)O ; dose: 71.4 µM ; species: Herpes simplex virus 2 ; measure: inhibition ; strain or isolate: K979 ; method: cytopathic effect ; cell line: VERO ; value: >25%

For reference, 2 entries again:

compound,dose,species,measure,strain or isolate,method,cell line,value
Nc1nc2c(ncn2CCC(CO)CO)c(=O)[nH]1,,Herpes simplex virus 1,EC50,KOS ACV-resistant,cytopathic effect,HEL,>20 µg/mL
CN[C@@H]1[C@@H](O)[C@@H](O[C@@H]2[C@@H](O)[C@H](O[C@H]3OC([C@H](C)N)=CC[C@H]3N)[C@@H](N)C[C@H]2N)OC[C@]1(C)O,,Herpes simplex virus 1,EC50,KOS,cytopathic effect,HeLa,>200 µg/mL